For this data set, the system named is SARS-CoV-2 in Vero cells.

This note sets out measurements from article PMC9460261, “Need for a Standardized Translational Drug Development Platform: Lessons Learned from the Repurposing of Drugs for COVID-19” (Microorganisms, 2022).

Consider ivermectin, for which the “Selectivity Index (Vero cells), With Pgp pump inhibitor” value came out at 5.4 and the “Selectivity Index (Vero cells), Without Pgp pump inhibitor” value was 2.6.
